# Where two headings read alike, the source gives them in different places.
# Test system: X4 tropic HIV-1 NL4-3
# Details: TZM-bl cells
# Experimental: HIV inhibition test were performed by seeding 4000 P4-R5 MAGI cells (P. Charneau et al., J. Mol. Biol. 241: 651, 1994) in 100 μl of DMEM (10% FCS, 100 U/ml penicillin G, and 100 μg/ml streptomycin sulfate). P4-R5 cells are stably transfected with an LTR-lacZ cassette and upon successful infection by HIV-1 will express—galactosidase in a Tat-dependent manner, which can be detected in a chemiluminescence test. On the following day, aliquots of the fractions were added. Therefor the lyophilized fractions were resuspended in 80 μl of DMEM, and 25 μl each thereof was pipetted to P4-R5 cells, incubated at 37° C. for 1 hour and subsequently infected with HIV-1 NL4—3 (1 ng of p24 antigen). Virus stocks were obtained by transient infection of 293T cells with proviral DNA by the calcium phosphate method (CalPhos™ Mammalian Transfection Kit, Clontech). Virus stocks were harvested 48 hours post transfection, filtrated and used for infection. Three days post infection, β-galactosidase activity in infected P4-R5 cells was detected using GalScreen assay (TROPIX) as recommended by the manufacturer. Briefly, supernatant was removed, 40 μl of a 1:1 dilution of PBS/GalScreen+substrate was added, followed by incubation at room temperature for 30 min. Then 30 μl of the lysates were transferred into 96 well lumiplates. Subsequently, the lumines-cence was detected as relative light units per second in a luminometer (Berthold, ORION). From all measurements, the mean β-galactosidase background activity of non-infected control cells was subtracted. % infection values for each infection were calculated relative to no peptide containing controls (100%). […]
# 1.6 mg of fraction 31 from the 7th step in Example 1 was dissolved in 160 μl of DMEM. […] Three days later, infection rates were determined in a GalScreen assay (see Example 1). […]
# Table 1. […] TZM-bl cells containing serial dilutions of synthetic peptides were infected with HIV-1 NL4-3 and infection rates were determined and calculated as described in example 1 and 2 at two days post infection. IC50 values were determined using the GraphPad Prism software package. […]
structure (smiles),measurement,setting,value
"CC(C)C[C@H](NC(=O)[C@@H](NC(=O)[C@@H]1CCCN1C(=O)[C@@H](NC(=O)[C@H](CO)NC(=O)[C@@H](NC(=O)[C@H](CCC(N)=O)NC(=O)[C@@H]1CCCN1C(=O)[C@@H](NC(=O)[C@H](CCCCN)NC(=O)[C@H](CCCCN)NC(=O)[C@@H](NC(=O)[C@H](Cc1ccc(O)cc1)NC(=O)[C@H](CCCNC(=N)N)NC(=O)[C@@H](N)C(C)C)[C@@H](C)O)C(C)C)C(C)C)[C@@H](C)O)[C@@H](C)O)C(=O)O [ALB409-423, VRYTKKVPQVSTPTL]","antiviral activity against X4 tropic HIV-1 NL4-3 (words, SAR study)",,inactive
same,"antiviral activity against X4 tropic HIV-1 NL4-3 (words, SAR study)",listed as 409-423,severely impaired or abrogated antiviral activity
same,IC50,"read-out: IC50 ± SEM, X4 tropic HIV-1 NL4-3, two days post infection, synthetic peptides",> 100 µM
